Source: ChEMBL document CHEMBL1275243 (2010)

How the values were obtained:
Bacillus anthracis [1] = assay: Antimicrobial activity against Bacillus anthracis 240 assessed as change in fluorescence threshold cycle at. 03 ug/ml after 4 hrs by real-time PCR viability assay relative to control
Bacillus anthracis [2] = assay: Antimicrobial activity against Bacillus anthracis A0149 assessed as change in fluorescence threshold cycle at. 03 ug/ml after 4 hrs by real-time PCR viability assay relative to control
Bacillus anthracis [3] = assay: Antimicrobial activity against Bacillus anthracis A0293 assessed as change in fluorescence threshold cycle at. 03 ug/ml after 4 hrs by real-time PCR viability assay relative to control
Bacillus anthracis [4] = assay: Antimicrobial activity against Bacillus anthracis 240 assessed as change in fluorescence threshold cycle at 0.015 ug/ml after 4 hrs by real-time PCR viability assay relative to control
Bacillus anthracis [5] = assay: Antimicrobial activity against Bacillus anthracis A0264 assessed as change in fluorescence threshold cycle at. 03 ug/ml after 4 hrs by real-time PCR viability assay relative to control
Bacillus anthracis [6] = assay: Antimicrobial activity against Bacillus anthracis A0248 assessed as change in fluorescence threshold cycle at. 03 ug/ml after 4 hrs by real-time PCR viability assay relative to control
Bacillus anthracis [7] = assay: Antimicrobial activity against Bacillus anthracis A0488 assessed as change in fluorescence threshold cycle at. 03 ug/ml after 4 hrs by real-time PCR viability assay relative to control
Bacillus anthracis [8] = assay: Antimicrobial activity against Bacillus anthracis A0465 assessed as change in fluorescence threshold cycle at. 03 ug/ml after 4 hrs by real-time PCR viability assay relative to control
Bacillus anthracis [9] = assay: Antimicrobial activity against Bacillus anthracis A0488 assessed as change in fluorescence threshold cycle at 0.015 ug/ml after 4 hrs by real-time PCR viability assay relative to control
Bacillus anthracis [10] = assay: Antimicrobial activity against Bacillus anthracis A0188 assessed as change in fluorescence threshold cycle at 0.015 ug/ml after 4 hrs by real-time PCR viability assay relative to control
Bacillus anthracis [11] = assay: Antimicrobial activity against Bacillus anthracis A0419 assessed as change in fluorescence threshold cycle at 0.015 ug/ml after 4 hrs by real-time PCR viability assay relative to control
Bacillus anthracis [12] = assay: Antimicrobial activity against Bacillus anthracis A0149 assessed as change in fluorescence threshold cycle at 0.015 ug/ml after 4 hrs by real-time PCR viability assay relative to control
Bacillus anthracis [13] = assay: Antimicrobial activity against Bacillus anthracis A03768 assessed as change in fluorescence threshold cycle at 0.015 ug/ml after 4 hrs by real-time PCR viability assay relative to control
Bacillus anthracis [14] = assay: Antimicrobial activity against pXO1-positive and pXO2 negative Bacillus anthracis 34F2 assessed as change in fluorescence threshold cycle at. 03 ug/ml after 4 hrs by real-time PCR viability assay relative to control
Bacillus anthracis [15] = assay: Antimicrobial activity against Bacillus anthracis 240 assessed as change in fluorescence threshold cycle at 64 ug/ml after 4 hrs by real-time PCR viability assay relative to control
Bacillus anthracis [16] = assay: Antimicrobial activity against Bacillus anthracis A0188 assessed as change in fluorescence threshold cycle at 8 ug/ml after 4 hrs by real-time PCR viability assay relative to control
Bacillus anthracis [17] = assay: Antimicrobial activity against Bacillus anthracis A0264 assessed as change in fluorescence threshold cycle at 32 ug/ml after 4 hrs by real-time PCR viability assay relative to control
Bacillus anthracis [18] = assay: Antimicrobial activity against Bacillus anthracis A0188 assessed as change in fluorescence threshold cycle at 32 ug/ml after 4 hrs by real-time PCR viability assay relative to control
Bacillus anthracis [19] = assay: Antimicrobial activity against Bacillus anthracis A0248 assessed as change in fluorescence threshold cycle at 32 ug/ml after 4 hrs by real-time PCR viability assay relative to control
Bacillus anthracis [20] = assay: Antimicrobial activity against Bacillus anthracis A0488 assessed as change in fluorescence threshold cycle at 32 ug/ml after 4 hrs by real-time PCR viability assay relative to control
Bacillus anthracis [21] = assay: Antimicrobial activity against Bacillus anthracis A0102 assessed as change in fluorescence threshold cycle at 32 ug/ml after 4 hrs by real-time PCR viability assay relative to control
Bacillus anthracis [22] = assay: Antimicrobial activity against Bacillus anthracis A0293 assessed as change in fluorescence threshold cycle at 64 ug/ml after 4 hrs by real-time PCR viability assay relative to control
Bacillus anthracis [23] = assay: Antimicrobial activity against Bacillus anthracis A0264 assessed as change in fluorescence threshold cycle at 64 ug/ml after 4 hrs by real-time PCR viability assay relative to control
Bacillus anthracis [24] = assay: Antimicrobial activity against Bacillus anthracis A0419 assessed as change in fluorescence threshold cycle at 64 ug/ml after 4 hrs by real-time PCR viability assay relative to control
Bacillus anthracis [25] = assay: Antimicrobial activity against Bacillus anthracis A0293 assessed as change in fluorescence threshold cycle at 32 ug/ml after 4 hrs by real-time PCR viability assay relative to control
Bacillus anthracis [26] = assay: Antimicrobial activity against Bacillus anthracis A0149 assessed as change in fluorescence threshold cycle at 32 ug/ml after 4 hrs by real-time PCR viability assay relative to control
Bacillus anthracis [27] = assay: Antimicrobial activity against pXO1-positive and pXO2 negative Bacillus anthracis 34F2 assessed as change in fluorescence threshold cycle at 64 ug/ml after 4 hrs by real-time PCR viability assay relative to control
Bacillus anthracis [28] = assay: Antimicrobial activity against pXO1-positive and pXO2 negative Bacillus anthracis 34F2 assessed as change in fluorescence threshold cycle at 32 ug/ml after 4 hrs by real-time PCR viability assay relative to control

Question: Which results are given for O=C(O)c1cn(C2CC2)c2cc(N3CCNCC3)c(F)cc2c1=O [CIPROFLOXACIN]?
Answer: deltaCT (Bacillus anthracis [1]): 7.98; deltaCT (Bacillus anthracis [2]): 8.01; deltaCT (Bacillus anthracis [3]): 8.59; deltaCT (Bacillus anthracis [4]): 5; deltaCT (Bacillus anthracis [5]): 0.7; deltaCT (Bacillus anthracis [6]): 8.59; deltaCT (Bacillus anthracis [7]): 8.78; deltaCT (Bacillus anthracis [8]): 9.23; deltaCT (Bacillus anthracis [9]): 7.6; deltaCT (Bacillus anthracis [10]): 8.62; deltaCT (Bacillus anthracis [11]): 8.81; deltaCT (Bacillus anthracis [12]): 7.69; deltaCT (Bacillus anthracis [13]): 8.82; deltaCT (Bacillus anthracis [14]): 8.95

Question: For C[C@H]1c2cccc(O)c2C(=O)C2=C(O)[C@]3(O)C(=O)C(C(N)=O)=C(O)[C@@H](N(C)C)[C@@H]3[C@@H](O)[C@@H]21.O [DOXYCYCLINE], which deltaCT (Bacillus anthracis [15]) is on record?
Answer: 7.23

Question: And the deltaCT (Bacillus anthracis [16])?
Answer: 8.12

Question: What about the deltaCT (Bacillus anthracis [17]) of the same compound?
Answer: 7.54

Question: What about the deltaCT (Bacillus anthracis [18]) of the same compound?
Answer: 6.92

Question: And the deltaCT (Bacillus anthracis [19])?
Answer: 6.16

Question: What about the deltaCT (Bacillus anthracis [20]) of the same compound?
Answer: 6.67

Question: And the deltaCT (Bacillus anthracis [21])?
Answer: 6.47

Question: What about the deltaCT (Bacillus anthracis [22]) of the same compound?
Answer: 8.51

Question: And the deltaCT (Bacillus anthracis [23])?
Answer: 7.21

Question: What about the deltaCT (Bacillus anthracis [24]) of the same compound?
Answer: 7.25

Question: What about the deltaCT (Bacillus anthracis [25]) of the same compound?
Answer: 7.74

Question: What about the deltaCT (Bacillus anthracis [26]) of the same compound?
Answer: 8.13

Question: What about the deltaCT (Bacillus anthracis [27]) of the same compound?
Answer: 7.54

Question: What about the deltaCT (Bacillus anthracis [28]) of the same compound?
Answer: 7.22
